Where only a bound is given, the exact number is not on record here.

Sequences of proteins named here, by UniProt entry; tags and fusion partners are left off. Residues count along the entry.
UniProt P9WMM5, whole entry: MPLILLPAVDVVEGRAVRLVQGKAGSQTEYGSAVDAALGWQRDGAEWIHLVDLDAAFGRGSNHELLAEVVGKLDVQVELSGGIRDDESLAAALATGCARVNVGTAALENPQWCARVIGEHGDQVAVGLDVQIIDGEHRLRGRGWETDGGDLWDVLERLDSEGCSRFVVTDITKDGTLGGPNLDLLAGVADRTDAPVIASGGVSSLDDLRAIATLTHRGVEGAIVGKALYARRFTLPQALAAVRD
UniProt Q8DTF4, 1-275 limits assumed: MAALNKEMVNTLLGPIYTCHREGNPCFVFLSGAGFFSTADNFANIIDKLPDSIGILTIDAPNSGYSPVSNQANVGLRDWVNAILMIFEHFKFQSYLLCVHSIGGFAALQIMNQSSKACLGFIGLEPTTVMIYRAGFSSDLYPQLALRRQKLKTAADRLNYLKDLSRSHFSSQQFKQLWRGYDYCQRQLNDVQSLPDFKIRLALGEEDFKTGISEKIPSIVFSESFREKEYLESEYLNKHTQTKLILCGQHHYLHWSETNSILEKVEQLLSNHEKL
UniProt Q8DTF4, 1-275 S101A limits assumed: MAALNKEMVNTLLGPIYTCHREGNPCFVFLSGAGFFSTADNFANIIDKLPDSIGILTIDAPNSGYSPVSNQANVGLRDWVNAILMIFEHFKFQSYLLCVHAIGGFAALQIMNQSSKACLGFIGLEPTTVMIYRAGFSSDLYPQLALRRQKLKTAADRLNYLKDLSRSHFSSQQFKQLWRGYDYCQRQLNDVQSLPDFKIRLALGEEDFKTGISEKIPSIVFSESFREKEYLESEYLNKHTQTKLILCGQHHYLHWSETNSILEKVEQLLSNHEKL
UniProt P9WQP3, 44-338 limits assumed: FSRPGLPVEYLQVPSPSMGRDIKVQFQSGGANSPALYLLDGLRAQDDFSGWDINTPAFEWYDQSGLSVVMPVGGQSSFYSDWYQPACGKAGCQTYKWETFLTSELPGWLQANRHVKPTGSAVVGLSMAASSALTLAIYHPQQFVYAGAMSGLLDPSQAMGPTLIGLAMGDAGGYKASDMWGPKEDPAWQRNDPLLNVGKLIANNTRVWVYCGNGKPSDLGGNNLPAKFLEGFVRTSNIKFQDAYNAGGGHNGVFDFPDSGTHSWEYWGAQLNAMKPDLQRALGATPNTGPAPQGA

Common to all, as to assay: Fluorescence polarization with 200 nM TFP-probe titrated with protein until saturation, fitted to a one site-specific binding model (with Hill slope for Smu. 1393c).
In one assay the target is phosphoribosyl isomerase (Mycobacterium tuberculosis, UniProt P9WMM5). On the procedure:
(§1) To quantify OP binding and check for non-covalent interactions, we use fluorescent polarization experiments utilizing the TFP-probe as substrate (Fig. 3b and Supplementarty Fig. 5). We find that Smu. 1393c has low micromolar binding (Kd = 4.17 ± 0.08 μM). Though candidates’ antigen 85-A and phosphoribosyl isomerase show no covalent binding, there are non-covalent binding interactions with Kd’s of 20.9 ± 1.6 μM and 120 ± 10 μM, respectively. All three candidates display binding interactions that validate the predictions from our computational workflow.
(§2) We perform fluorescence polarization using the TFP-probe as substrate. We dilute the TFP-probe to a 200 nM concentration and titrate the given protein measuring the change in polarization until saturation. We fit the obtained data first to a one site-specific binding model, [drawing 1] , and then to a one site-specific binding model with Hill slope, [drawing 2] . There is no substantial difference between the fits for phosphoribosyl isomerase, antigen 85-A, and Smu. 1393c S99A. We find that the one site-specific binding model with Hill coefficient produces a better fit for Smu. 1393c (Hill coefficient = 2.0 ± 0.06).

For another assay, the target named is Smu. 1393c (Streptococcus mutans, UniProt Q8DTF4). On the procedure:
as §1, §2

The target of another assay is antigen 85-A (Mycobacterium tuberculosis, UniProt P9WQP3). On the procedure:
as §1, §2

Another assay deals with Smu. 1393c S99A (Streptococcus mutans, UniProt Q8DTF4, S101A). On the procedure: as §1, §2

As for “ActiveX Tamra fluorophosphonate serine hydrolase probe”, the Kd was 120 µM at phosphoribosyl isomerase, 4.17 µM on Smu. 1393c, 20.9 µM at antigen 85-A and greater than 300 µM at Smu. 1393c S99A.

The values above are taken from PMC5109037, “Harnessing Nature’s Diversity: Discovering organophosphate bioscavenger characteristics among low molecular weight proteins” (2016).
